Assay results from patent US11857560B2, “Pharmaceutical compositions comprising substituted nucleotides and nucleosides for treating viral infections” (priority 2013, dated 2024).

Biological target: NS5B-δ21 from HCV GT-1b Con-1 (Hepatitis C virus genotype 1b (isolate Con1) (HCV), UniProt Q9WMX2)
Assay: HCV NS5B pol assay

CC1(O)C(O)[C@@H](COP(=O)(O)OP(=O)(O)OP(=O)(O)O)O[C@H]1n1ccc(=O)[nH]c1=[Se] (stereo partly drawn) [ENUC-02059]
IC50: 50.1 µM
IC25 (32P-GTP): 6.82 µM
IC95 (32P-GTP): >100 µM
